HIV-1 5' UTR: effect of mutations on RNA dimer formation

Data from the supplement of Ye et al. 2022, doi:10.1038/s41594-022-00746-2.

RNA: 5' end of the HIV-1 NL4-3 genome, made in vitro. Positions 1-437 read:
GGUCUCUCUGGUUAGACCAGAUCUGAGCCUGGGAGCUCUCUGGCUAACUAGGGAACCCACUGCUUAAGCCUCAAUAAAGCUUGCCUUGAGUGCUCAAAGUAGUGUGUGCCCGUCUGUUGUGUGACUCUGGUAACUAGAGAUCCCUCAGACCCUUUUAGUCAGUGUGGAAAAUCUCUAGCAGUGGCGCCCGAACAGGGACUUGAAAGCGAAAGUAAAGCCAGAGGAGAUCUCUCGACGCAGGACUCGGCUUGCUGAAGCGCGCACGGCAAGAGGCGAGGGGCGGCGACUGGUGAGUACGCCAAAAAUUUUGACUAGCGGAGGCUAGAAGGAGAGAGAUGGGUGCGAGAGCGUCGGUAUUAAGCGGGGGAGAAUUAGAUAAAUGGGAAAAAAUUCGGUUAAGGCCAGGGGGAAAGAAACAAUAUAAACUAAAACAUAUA

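Randomly mutated transcripts starting with one, two or three G (1G, 2G, 3G), capped or uncapped, were folded for 30 min at 37 °C. Monomer and dimer bands were cut from native gels after folding in high salt (300 mM KCl, 5 mM MgCl2) or low salt (40 mM KCl, 0.1 mM MgCl2). Mutation frequencies in the two bands give Kdimer.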

Scale: median log2 Kdimer over the changes at a position; positive = changes inhibit dimerization, negative = changes enhance it. One numbering serves 1G, 2G and 3G. A position is written with its base.

- A21 (domain TAR) = 1G capped low-salt -0.06; 3G uncapped low-salt -0.12
- U22 (domain TAR) = 1G capped low-salt -0.17; 3G uncapped low-salt 0.07
- C23 (domain TAR) = 1G capped low-salt -0.53; 3G uncapped low-salt 0.02
- U24 (domain TAR) = 1G capped low-salt -0.32; 3G uncapped low-salt -0.05
- G25 (domain TAR) = 1G capped low-salt -0.61; 3G uncapped low-salt -0.05
- A26 (domain TAR) = 1G capped low-salt 0.12; 3G uncapped low-salt -0.26
- G27 (domain TAR) = 1G capped low-salt -0.86; 3G uncapped low-salt -0.97
- C28 (domain TAR) = 1G capped low-salt -0.59; 3G uncapped low-salt -1.08
- C29 (domain TAR) = 1G capped low-salt -0.19; 3G uncapped low-salt -0.17
- U30 (domain TAR) = 1G capped low-salt -0.25; 3G uncapped low-salt 0.04
- G31 (domain TAR) = 1G capped low-salt -0.21; 3G uncapped low-salt -0.09
- G32 (domain TAR) = 1G capped low-salt -0.08; 3G uncapped low-salt 0.03
- G33 (domain TAR) = 1G capped low-salt -0.44; 3G uncapped low-salt -0.01
- A34 (domain TAR) = 1G capped low-salt -0.02; 3G uncapped low-salt -0.05
- G35 (domain TAR) = 1G capped low-salt -0.55; 3G uncapped low-salt -0.87
- C36 (domain TAR) = 1G capped low-salt -0.26; 3G uncapped low-salt -0.70
- U37 (domain TAR) = 1G capped low-salt -0.22; 3G uncapped low-salt -0.59
- C38 (domain TAR) = 1G capped low-salt -0.21; 3G uncapped low-salt -0.14
- U39 (domain TAR) = 1G capped low-salt -0.02; 3G uncapped low-salt -0.10
- C40 (domain TAR) = 1G capped low-salt -0.02; 3G uncapped low-salt -0.02
- U41 (domain TAR) = 1G capped low-salt -0.54; 3G uncapped low-salt -0.15
- G42 (domain TAR) = 1G capped low-salt -0.43; 3G uncapped low-salt -0.32
- G43 (domain TAR) = 1G capped low-salt -0.22; 3G uncapped low-salt -0.13
- C44 (domain TAR) = 1G capped low-salt -0.15; 3G uncapped low-salt -0.09
- U45 (domain TAR) = 1G capped low-salt -0.04; 3G uncapped low-salt -0.11
- A46 (domain TAR) = 1G capped low-salt -0.28; 3G uncapped low-salt -0.41
- A47 (domain TAR) = 1G capped low-salt -0.20; 3G uncapped low-salt -0.21
- C48 (domain TAR) = 1G capped low-salt -0.50; 3G uncapped low-salt -0.62
- U49 (domain TAR) = 1G capped low-salt 0.01; 3G uncapped low-salt -0.05
- A50 (domain TAR) = 1G capped low-salt -0.13; 3G uncapped low-salt -0.17
- G51 (domain TAR) = 1G capped low-salt -0.06; 3G uncapped low-salt -0.18
- G52 (domain TAR) = 1G capped low-salt 0.08; 3G uncapped low-salt -0.08
- G53 (domain TAR) = 1G capped low-salt 0.00; 3G uncapped low-salt 0.11
- A54 (domain TAR) = 1G capped low-salt -0.14; 3G uncapped low-salt -0.39
- A55 (domain TAR) = 1G capped low-salt 0.17; 3G uncapped low-salt 0.08
- C56 (domain TAR) = 1G capped low-salt -0.03; 3G uncapped low-salt 0.01
- C57 (domain TAR) = 1G capped low-salt -0.15; 3G uncapped low-salt -0.76
- C58 (domain PolyA) = 1G capped low-salt 0.33; 3G uncapped low-salt 0.11
- A59 (domain PolyA) = 1G capped low-salt 0.31; 3G uncapped low-salt 0.13
- C60 (domain PolyA) = 1G capped low-salt 0.24; 3G uncapped low-salt 0.07
- U61 (domain PolyA) = 1G capped low-salt 0.19; 3G uncapped low-salt 0.10

A selection of 4 entries from above:

{"position": "C60", "domain": "PolyA", "1G capped low-salt": 0.24, "3G uncapped low-salt": 0.07}
{"position": "U45", "domain": "TAR", "1G capped low-salt": -0.04, "3G uncapped low-salt": -0.11}
{"position": "G35", "domain": "TAR", "1G capped low-salt": -0.55, "3G uncapped low-salt": -0.87}
{"position": "A54", "domain": "TAR", "1G capped low-salt": -0.14, "3G uncapped low-salt": -0.39}